Compound potency records, mixed from different reports. Data source: NIAID ChemDB in PubChem.

Common to all: whole-cell or culture tests; agent: HIV-1; read-out: fold resistance

Fold resistance has wild type as its base.

smiles,changes,read by,strain or isolate,cells,result
C[C@@H](CNC(=S)Nc1ccccn1)c1ccccc1,RT-Y181C,p24,NNRTI-resistant (RT Y181C) A17,PBMC,76
O=C(N[C@H]1c2ccccc2OC[C@H]1O)[C@H](Cc1cccnc1)C[C@H](O)CN1CCN(Cc2ccn(-c3cc(Cl)c(Cl)c(Cl)c3)c2)C[C@H]1C(=O)NCC(F)(F)F,PR-L10I M36I N37D M46I R57K L63P A71V G73S I84V L90M I93L,p24,V-18C Clinical isolate,MT-4,≥1.875
CC(C)(C)C(=O)c1sc(C(=O)NCCc2ccccc2)c(O)c1O,IN-T66I S153Y N155S,,,,>33
O=C(NCc1ccc(F)cc1)c1nc(N2CCCCS2(=O)=O)c2cccnc2c1O,INTG-T66I M154I,p24,,,1.6
O=C(N[C@H]1c2ccccc2OC[C@H]1O)[C@H](Cc1cccnc1)C[C@H](O)CN1CCN(Cc2ccn(-c3ccccc3)c2)C[C@H]1C(=O)NCC(F)(F)F,PR-L10I M46I I54V Q58E L63P I64V V77I V82F I84V L90M I93L,p24,K-60C Clinical isolate,MT-4,2.06
Cc1occc1C(=S)Nc1ccc(Cl)c(/C=N/OC(C)(C)C)c1,RT-Y181C,cytopathic effect / XTT,UC82-R (RT-Y181C),CEM + CEM-SS,5.5
O=C(N[C@H]1c2ccccc2OC[C@H]1O)[C@H](Cc1cccnc1)C[C@H](O)CN1CCN(Cc2ccn(-c3ccc(Cl)cc3)c2)C[C@H]1C(=O)NCC(F)(F)F,PR-L10I M46I I54V Q58E L63P I64V V77I V82F I84V L90M I93L,p24,K-60C Clinical isolate,MT-4,≥1.8
CC(C)Nc1cccnc1N1CCN(C(=O)c2cc3cc(NS(C)(=O)=O)ccc3[nH]2)CC1,RT-M41L T215Y,syncytia,HXB2,CEM,1.3
N#Cc1ccc(Nc2nc(Cc3c(Cl)cccc3Cl)nc(NO)n2)cc1,RT-L100I K103N,cytopathic effect / MTT,NNRTI-resistant (RT L100I K103N),MT-4,2500
Cc1ccnc2c1NC(=O)c1cccnc1N2C1CC1,Pyridinone-resistant (RT Y181C K103N),cytopathic effect / XTT,A17,CEM + CEM-SS,>3800
C[C@@H](CNC(=S)Nc1ccc(Br)cn1)c1ccccc1,RT-Y181C,p24,NNRTI-resistant (RT Y181C) A17,PBMC,233
Cc1cn([C@H]2C[C@H](N=[N+]=[N-])[C@@H](CO)O2)c(=O)[nH]c1=O,RT-D67N K70R T215Y K219Q,,NL4-3,CEM + CEM-SS,19.6
Fc1cccc(F)c1C1OCc2nc3ccccc3n21,RT-E138K,cytopathic effect / MTT,TSAO-resistant (RT E138K),CEM,1.82
CCN1C(=O)N(Cc2ccccc2)S(=O)(=O)c2cscc21,RT-E138K,syncytia,,CEM,111
Cc1cn([C@@H]2O[C@H](CO[Si](C)(C)C(C)(C)C)C3(OS(=O)(=O)C=C3N)[C@H]2O[Si](C)(C)C(C)(C)C)c(=O)n(C)c1=O,RT-Y188L,syncytia,IIIB,CEM,≥2080
O=c1[nH]cnc2c1ncn2[C@H]1CC[C@@H](CO)O1,RT-M41L T215Y,syncytia,HXB2,CEM,1.71
Cc1occc1C(=S)Nc1ccc(Cl)c(/C=N/OC(C)(C)C)c1,RT-K103N,syncytia,IIIB,CEM,≥20
O=c1[nH]c2ccc(Cl)cc2n1Cc1c(F)cccc1F,RT-Y181C,cytopathic effect,,CEM,>22.7
O=C(NCc1ccc(F)cc1)c1nc(N2CCCCS2(=O)=O)c2cccnc2c1O,INTG-V151I,,,,36
CCN1C(=O)N(Cc2cccc(Cl)c2)S(=O)(=O)c2cscc21,RT-D67N K70R T215F K219Q,syncytia,ADP/141,MT-4,0.24
Fc1ccccc1CCNC(=S)Nc1ccc(Br)cn1,RT-Y181C,p24,NNRTI-resistant (RT Y181C) A17,PBMC,200
CC[C@H]1C(=O)Nc2ccc(F)cc2N1C(=O)OC(C)C,RT-Y181C,cytopathic effect,NNRTI-resistant,CEM,40.95
O=c1[nH]cnc2c1ncn2[C@H]1CC[C@@H](CO)O1,RT-L74V,p24,,C8166,5
Cc1ccncc1-c1ccc(C[C@H](C[C@H](O)CN2CCN(Cc3ccc(-c4ccc(Cl)cc4)o3)C[C@H]2C(=O)NCC(F)(F)F)C(=O)N[C@H]2c3ccccc3OC[C@H]2O)o1,PR-M46I L63P V82T I84V,p24,4X (PR M46I L63P V82T I84V),MT-4,2
CCOCn1c(Cc2ccccc2)c(C(C)C)c(=O)[nH]c1=O,RT-M184V,syncytia,IIIB,CEM,2
Cc1cn([C@H]2C[C@H](N=[N+]=[N-])[C@@H](CO)O2)c(=O)[nH]c1=O,RT-T215Y,RT activity,RTMF(RT-T215Y),PBMC,9
Cc1cc(S(N)(=O)=O)ccc1NC(=O)COc1ccc(Cl)cc1C(=O)c1cc(Cl)cc(C#N)c1,RT-G190A,β-galactosidase,NNRTI-resistant (RT G190A),MAGI,1.7
Cc1cccc(-n2ccc(CN3CCN(C[C@@H](O)C[C@@H](Cc4cccnc4)C(=O)N[C@H]4c5ccccc5OC[C@H]4O)[C@H](C(=O)NCC(F)(F)F)C3)c2)c1,PR-L10I M46I I54V Q58E L63P I64V V77I V82F I84V L90M I93L,p24,K-60C Clinical isolate,MT-4,≥3.8
Cc1cn([C@H]2C=C[C@@H](CO)O2)c(=O)[nH]c1=O,RT-T69N K70R Q151M,cytopathic effect,NI-10.93 (HXB2 RT T69N K70R Q151M),MT-4,>24
Cc1ccccc1Cc1cccc(C(=O)CC(=O)C(=O)O)c1,INTG-T66I S153Y,p24,,,6
N#Cc1ccc(Nc2nc(N)nc(Cc3c(Cl)cccc3Cl)n2)cc1,RT-K103N Y181C,cytopathic effect / MTT,NNRTI-resistant (RT K103N Y181C),MT-4,233
Cc1cn([C@@H]2O[C@H](CO[Si](C)(C)C(C)(C)C)C3(OS(=O)(=O)C=C3N)[C@H]2O[Si](C)(C)C(C)(C)C)c(=O)n(C)c1=O,RT-M41L T215Y,syncytia,HXB2,CEM,1
Cc1cn([C@H]2C[C@H](N=[N+]=[N-])[C@@H](CO)O2)c(=O)[nH]c1=O,RT-D67N K70R T215F K219Q,p24,,C8166,29
O=c1[nH]cnc2c1ncn2[C@H]1CC[C@@H](CO)O1,RT-T69N K70R Q151M,cytopathic effect,NI-10.93 (HXB2 RT T69N K70R Q151M),MT-4,>4.04
Cc1cccc(NC(=S)NC[C@H](C)c2ccccc2)n1,RT-Y181C,p24,NNRTI-resistant (RT Y181C) A17,PBMC,35
Cc1cn([C@H]2C[C@H](N=[N+]=[N-])[C@@H](CO)O2)c(=O)[nH]c1=O,INTG-T66I,,,,1
CN1C(=O)N(Cc2ccccc2)S(=O)(=O)c2cscc21,RT-V106A,syncytia,,CEM,>141
Fc1cccc(F)c1C1SCc2nc3ccccc3n21,RT-L100I,cytopathic effect / MTT,IIIB,CEM,2.25
CC(C)Nc1cccnc1N1CCN(C(=O)c2cc3cc(NS(C)(=O)=O)ccc3[nH]2)CC1,RT-P236L,p24,BaL,PBMC,243
CC(C)CN(C[C@@H](O)[C@H](Cc1ccccc1)NC(=O)O[C@H]1CO[C@H]2OCC[C@H]21)S(=O)(=O)c1cccc(N)c1,PR-L10I M46I A71V I84V,cytopathic effect / MTT,PI-resistant (PR L10I M46I A71V I84V) M1,MT-4,34
Cc1occc1C(=S)Nc1ccc(Cl)c(C(=O)OC2CCCC2)c1,RT-L100I,syncytia,IIIB,CEM,34
C/C=C/CSc1cc(NC(=S)c2ccsc2C)ccc1Cl,RT-Y181C,cytopathic effect / XTT,UC040-R (RT-Y181C),CEM + CEM-SS,>33.3
CNc1ccc(Cl)cc1S(=O)(=O)c1ccccc1[N+](=O)[O-],RT-T139L,XTT,Calanolide A-resistant (RT T139L),CEM + CEM-SS,0.7
Nc1ccn([C@H]2CC[C@@H](CO)O2)c(=O)n1,RT-F77L F116Y Q151M,cytopathic effect,FO-08.96 (HXB2 RT F77L F116Y Q151M),MT-4,>23.4
Cc1ccnc2c1NC(=O)c1cccnc1N2C1CC1,RT-L74V Y181C,plaque count,HXB2,HT4 + HT4 LacZ-1,66.7
Fc1cccc(F)c1C1SCc2nc3ccccc3n21,RT-Y181C,cytopathic effect / MTT,Pyridinone-resistant (RT Y181C),CEM,9.98
Cc1cn([C@@H]2O[C@H](CO[Si](C)(C)C(C)(C)C)C3(OS(=O)(=O)C=C3N)[C@H]2O[Si](C)(C)C(C)(C)C)c(=O)n(C)c1=O,RT-K103N,cytopathic effect,NNRTI-resistant,CEM,10.36
CC(=O)c1ccccc1NC(C(N)=O)c1c(Cl)cccc1Cl,RT-P236L,p24,DLV-resistant MF (RT-P236L),MT-4,0.533
CC1=CC(=O)C(C)(C2=NC(C)(C)CO2)c2ccccc21,RT-Y181C,cytopathic effect / XTT,RF,CEM + CEM-SS,>37
CC(C)=CCN1Cc2cc(Cl)cc3[nH]c(=S)n(c23)C[C@@H]1C,RT-M41L T215Y,syncytia,HXB2,CEM,0.722

The last 7 rows once more:

smiles,changes,read by,strain or isolate,cells,result
Nc1ccn([C@H]2CC[C@@H](CO)O2)c(=O)n1,RT-F77L F116Y Q151M,cytopathic effect,FO-08.96 (HXB2 RT F77L F116Y Q151M),MT-4,>23.4
Cc1ccnc2c1NC(=O)c1cccnc1N2C1CC1,RT-L74V Y181C,plaque count,HXB2,HT4 + HT4 LacZ-1,66.7
Fc1cccc(F)c1C1SCc2nc3ccccc3n21,RT-Y181C,cytopathic effect / MTT,Pyridinone-resistant (RT Y181C),CEM,9.98
Cc1cn([C@@H]2O[C@H](CO[Si](C)(C)C(C)(C)C)C3(OS(=O)(=O)C=C3N)[C@H]2O[Si](C)(C)C(C)(C)C)c(=O)n(C)c1=O,RT-K103N,cytopathic effect,NNRTI-resistant,CEM,10.36
CC(=O)c1ccccc1NC(C(N)=O)c1c(Cl)cccc1Cl,RT-P236L,p24,DLV-resistant MF (RT-P236L),MT-4,0.533
CC1=CC(=O)C(C)(C2=NC(C)(C)CO2)c2ccccc21,RT-Y181C,cytopathic effect / XTT,RF,CEM + CEM-SS,>37
CC(C)=CCN1Cc2cc(Cl)cc3[nH]c(=S)n(c23)C[C@@H]1C,RT-M41L T215Y,syncytia,HXB2,CEM,0.722

Blank or dashed fields: not listed here. Lines come from different laboratories, so protocols vary.